Results as given in PubChem BioAssay AID1822 (The Scripps Research Institute Molecular Screening Center, 2009).
Only a part is listed here, and it is no random draw. Activity calls are given as the source filed them.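 The calls were made as follows: active = inhibition above the campaign mean inhibition over all tested compounds plus 3 SD (cut at about 28% in these data); inactive = the rest.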

Test system: M18 aspartyl aminopeptidase (Plasmodium falciparum 3D7)
Assay: inhibition of P. falciparum M18 aminopeptidase – biochemical, QFRET, recombinant enzyme, primary screen (AID 1822);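 also: 0% = plate median of test compound wells and 100% = 2 mM ZnCl2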
Conditions: recombinant PfM18AAP, H-Glu-NHMec fluorogenic cleavage; at 7.35 µM; active compounds read high

Row | Structure (SMILES) | inhibition
1 | COc1ccc(C(=O)NCC2(N3CCOCC3)CCCCC2)cc1OC | inactive: -1.38%
2 | N/C(=N\O)c1c(N)no[n+]1[O-] | inactive: 3.09%
3 | CCOC(=O)N1CCC(Nc2ccc(C)cc2)CC1 | inactive: 5.45%
4 | O=C(OC1CN2CCC1CC2)C1c2ccccc2C=Cc2ccccc21 (centres undefined) | inactive: -8.52%
5 | CC(C)(C)OC(=O)N1CCC(N(C(=O)c2ccccc2)c2ccc(Cl)cc2)CC1 | inactive: 6.06%
6 | N#Cc1ccc(C(=O)NCC2(N3CCCCC3)CCCCC2)cc1 | inactive: 1.17%
7 | CCCN1CCC(Nc2cc(OC)cc(OC)c2)CC1 | inactive: -7.67%
8 | c1ccc(CN2CCC(Nc3ccccc3)CC2)cc1 | inactive: 0.01%
9 | CN(C)C1(CNC(=O)c2cccc(C#N)c2)CCCCC1 | inactive: -0.38%
10 | COc1cc(OC)cc(C(=O)NCC2(N3CCCCC3)CCCCC2)c1 | inactive: -7.33%
11 | CCN1CCC(Nc2cccc(F)c2)CC1 | inactive: -9.66%
12 | CN(C)c1ccc(C(=O)NCC2(N3CCCCC3)CCCCC2)cc1 | inactive: 7.72%
13 | CN1CCC(Nc2ccc(F)c(Cl)c2)CC1 | inactive: 1%
14 | CCOc1ncccc1C(=O)NCC1(N2CCOCC2)CCCCC1 | inactive: -4.64%
15 | CCCOc1ccc(C(=O)NCC2(N(C)C)CCCCC2)cc1 | inactive: -1.19%
16 | O=C(O)C1(Nc2ccccc2)CCN(Cc2ccccc2)CC1 | inactive: 0.59%
17 | CC(C)(C)OC(=O)N1CCC(Nc2ccccc2)CC1 | inactive: 2.27%
18 | CCC(CO)(C(=O)OC1CN2CCC1CC2)c1ccccc1 (centres undefined) | inactive: -2.97%
19 | COc1cccc(C(=O)N(c2cc(C)cc(C)c2)C2CCN(C(=O)OC(C)(C)C)CC2)c1 | inactive: 3.11%
20 | COc1cc(OC)cc(C(=O)NCC2(N3CCOCC3)CCCCC2)c1 | inactive: -13.5%
21 | CCCOc1ccc(C)cc1CN(CCCl)CCCl | inactive: -4.04%
22 | CN1CCC(Nc2ccc(Cl)cc2)CC1 | inactive: 1.84%
23 | O=C(NCC1(N2CCCCC2)CCCCC1)c1ccc(=O)[nH]c1 | inactive: 5.67%
24 | CC(C)(C)OC(=O)N1CCC(N(C(=O)c2ccccc2)c2ccc(F)cc2)CC1 | inactive: -0.12%
25 | COc1ccc(C(=O)NCC2(N3CCCCC3)CCCCC2)c(OC)c1OC | inactive: -5.94%
26 | COc1ccc(C(=O)NCC2(N3CCCCC3)CCCCC2)cc1 | inactive: 8.2%
27 | CSc1ccccc1C(=O)NCC1(N2CCCCC2)CCCCC1 | inactive: 16.3%

Row | Structure (SMILES) | inhibition
28 | O=C(NCC1(N2CCOCC2)CCCCC1)c1cc2ccccc2o1 | inactive: 2.02%
29 | Cc1cc(C)cc(N(C(=O)c2ccccc2)C2CCN(C(=O)OC(C)(C)C)CC2)c1 | inactive: 8.27%
30 | CCOC(=O)N1CCC(Nc2ccc(OC)cc2)CC1 | inactive: 13%
31 | O=C(OC1CN2CCC1CC2)C1c2ccccc2Oc2ccccc21 (centres undefined) | inactive: -0.18%
32 | N#CC1(Nc2ccccc2)CCN(Cc2ccccc2)CC1 | inactive: 0.87%
33 | CCOc1ccc(C)cc1CN(CCCl)CCCl | inactive: -8.23%
34 | CCOC(=O)N1CCC(Nc2ccc(F)cc2)CC1 | inactive: 15.2%
35 | COc1ccc(NC2CCN(CCc3ccccc3)CC2)c(OC)c1 | inactive: 8.72%
36 | O=C(NCC1(N2CCCCC2)CCCCC1)c1ccc(F)cc1 | inactive: 5.43%
37 | Cc1ccc(OCC(C)C)c(CN(CCCl)CCCl)c1 | inactive: -1%
38 | COc1cc(C(=O)NCC2(N(C)C)CCCCC2)ccc1OC(F)F | inactive: 5.98%
39 | CCOC(=O)N1CCC(Nc2cccc(C)c2)CC1 | inactive: -7.46%
40 | O=C(NCC1(N2CCCCC2)CCCCC1)c1ccc(OC(F)F)cc1 | inactive: 14.8%
41 | O=C(NCC1(N2CCCCC2)CCCCC1)c1cccc([N+](=O)[O-])c1 | inactive: 5.56%
42 | N#CC1(Nc2ccccc2)CCN(CCc2ccccc2)CC1 | inactive: -6.11%
43 | CCN1CCC(Nc2ccc(Cl)cc2)CC1 | inactive: 0.14%
44 | O=C(NCC1(N2CCCCC2)CCCCC1)c1cccc(C(F)(F)F)c1 | inactive: 4.68%
45 | COc1ccc(NC2CCN(C(=O)OC(C)(C)C)CC2)cc1 | inactive: -0.55%
46 | CN1CCN(CCOC(=O)C(O)(c2ccccc2)c2ccccc2)CC1 | inactive: -0.87%
47 | O=C(NCC1(N2CCOCC2)CCCCC1)c1cc(=O)[nH]c2ccccc12 | inactive: -4.37%
48 | COc1cc(C(=O)NCC2(N3CCCCC3)CCCCC2)ccc1OC(F)F | inactive: 6.19%
49 | CN(C)c1cccc(C(=O)NCC2(N3CCCCC3)CCCCC2)c1 | inactive: -10.5%
50 | COc1ccc(CN(CCCl)CCCl)cc1Cl | inactive: -3.09%
51 | CC(C)c1ccc(NC2CCN(C(=O)OC(C)(C)C)CC2)cc1 | inactive: -6.59%
52 | COc1cc(OC)c(C(=O)NCC2(N(C)C)CCCCC2)cc1OC | inactive: 1.68%
53 | CN1CCC(Nc2cccc(F)c2)CC1 | inactive: -8.22%
54 | CCCOc1ccc(C(=O)NCC2(N(C)C)CCCCC2)cc1OC | inactive: 3.85%
